Results of unrelated studies side by side (data: NIAID ChemDB).

Shared fields: whole-cell or culture tests; organism: Candida glabrata

MIC50, MIC90 and the like: level of inhibition, or share of isolates inhibited. Conditions beyond the fields shown may differ between rows. Blank or dashed fields: not listed here. ECn is the concentration giving n% inhibition of infection, replication or growth.

| smiles | strain | method | conditions | read-out | result |
|---|---|---|---|---|---|
| COC(=O)[C@H]1[C@@H]2C[C@@H](O[C@@H]3O[C@H](C)[C@@H](O)[C@H](N)[C@@H]3O)/C=C/C=C/C=C/C=C/C=C/C=C/C=C/[C@H](C)[C@@H](O)[C@H](C)[C@H](C)OC(=O)C[C@H](O)C[C@H](O)[C@@H](O)CC[C@H](O)C[C@H](O)C[C@](O)(C[C@@H]1O)O2 | 40 isolates | broth dilution | pH 5 | EC90 | 1 µg/mL |
| NC(=O)c1cc[n+](CCC[n+]2cccc(/C=N/O)c2)cc1.[Br-].[Br-] | - | broth dilution | - | EC50 | >20 µg/mL |
| Nc1[nH]c(=O)ncc1F | 40 isolates | broth dilution | pH 6 | EC90 | 0.125 µg/mL |
| O/N=C/c1cc[n+](Cc2cc(C[n+]3ccc(/C=N/O)cc3)on2)cc1.[Br-].[Br-] | - | broth dilution | - | EC50 | >20 µg/mL |
| Nc1ncccc1-c1cc(Cc2ccc(COc3ccccn3)cc2)no1 | - | broth dilution | - | MIC50 | 0.06 µg/mL |
| CN(C)c1ccc(/C=C2\SC(=O)N(CC(O)(Cn3nccn3)c3ccc(F)cc3F)C2=O)cc1 | - | - | - | MIC80 | 4.12 µg/mL |
| C=CCc1ccc(OC)c(OC)c1 | 2621 | turbidity | - | MIC90 | 350 µg/mL |
| CCC(C)n1ncn(-c2ccc(N3CCN(c4ccc(OC[C@H]5CO[C@](Cn6cncn6)(c6ccc(Cl)cc6Cl)O5)cc4)CC3)cc2)c1=O | - | broth dilution | - | MIC90 | 1 µg/mL |
| O/N=C/c1ccc[n+](Cc2cc(C[n+]3cccc(/C=N/O)c3)on2)c1.[Br-].[Br-] | - | broth dilution | - | EC50 | >20 µg/mL |
| C[C@@H](c1ncncc1F)[C@](O)(Cn1cncn1)c1ccc(F)cc1F | - | broth dilution | - | MIC90 | 1 µg/mL |
| c1ccc(C(c2ccccc2)n2cnc3ccccc32)cc1 | - | broth dilution | - | MFC | >256 µg/mL |
| N#Cc1ccc(/C=C2\SC(=O)N(CC(O)(Cn3nccn3)c3ccc(F)cc3F)C2=O)cc1 | - | - | - | MIC80 | 0.27 µg/mL |
| Clc1ccc(COC(Cn2ccnc2)c2ccc(Cl)cc2Cl)c(Cl)c1 | 40 isolates | broth dilution | pH 7 | EC90 | 0.5 µg/mL |
| CC(C)CC(=O)C(=O)O | CCUG 32725 | broth dilution | - | MFC100 | >72000 µg/mL |
| COc1ccc(C(c2ccc(OC)cc2)n2ccnc2)cc1 | - | agar | - | MIC90 | >256 µg/mL |
| O=C1S/C(=C\c2ccc3ccccc3n2)C(=O)N1CC(O)(Cn1nccn1)c1ccc(F)cc1F | - | - | - | MIC80 | 0.51 µg/mL |
| Clc1ccc(C(c2ccccc2)N2CCN(CCn3cncn3)CC2)cc1 | - | broth dilution | - | MFC | 256 µg/mL |
| CCC(C)CC(C)CCCCCCCCC(=O)N[C@H]1C[C@@H](O)[C@H](NCCN)NC(=O)[C@@H]2[C@@H](O)CCN2C(=O)[C@H]([C@H](O)CCN)NC(=O)[C@H]([C@H](O)[C@@H](O)c2ccc(O)cc2)NC(=O)[C@@H]2C[C@@H](O)CN2C(=O)[C@H]([C@@H](C)O)NC1=O | 40 isolates | broth dilution | pH 6 | EC90 | 0.5 µg/mL |
| O=C1S/C(=C\c2ccc(F)cc2F)C(=O)N1CC(O)(Cn1nccn1)c1ccc(F)cc1F | - | - | - | MIC80 | 1.04 µg/mL |
| c1ccc(C(c2ccccc2)n2cncn2)cc1 | - | broth dilution | - | MFC | 256 µg/mL |
| O=C1S/C(=C\c2ccncc2)C(=O)N1CC(O)(Cn1nccn1)c1ccc(F)cc1F | - | - | - | MIC80 | 1.13 µg/mL |
| Nc1ncccc1-c1cc(Cc2ccc(COc3ccccn3)cc2)no1 | - | broth dilution | - | MIC90 | 0.06 µg/mL |
| COc1ccc(C(c2ccc(OC)cc2)n2cncn2)cc1 | - | agar | - | MIC90 | >256 µg/mL |
| CC(C)CC(O)C(=O)O | G 212 | broth dilution | - | EC50 | 18000 µg/mL |
| O/N=C/c1cccc[n+]1Cc1csc2ccccc12.[Cl-] | - | broth dilution | - | EC50 | >20 µg/mL |
| O=C(c1ccccc1)C(c1ccccc1)n1cnc2ccccc21 | - | agar | - | MIC90 | 64 µg/mL |

The last 2 rows once more:

| smiles | strain | method | conditions | read-out | result |
|---|---|---|---|---|---|
| O/N=C/c1cccc[n+]1Cc1csc2ccccc12.[Cl-] | - | broth dilution | - | EC50 | >20 µg/mL |
| O=C(c1ccccc1)C(c1ccccc1)n1cnc2ccccc21 | - | agar | - | MIC90 | 64 µg/mL |